Results of unrelated studies side by side (data: NIAID ChemDB).

All rows: tests in culture; organism: Candida albicans; measure: MIC

Blank or dashed fields: not listed here. Lines come from different laboratories, so protocols vary.

smiles	strain or isolate	value
CO[C@@H]1[C@H]2OC(C)(C)O[C@H]2O[C@@H]1C1=NOC(Cc2ccc(O)cc2)C1		>50 µg/mL
Fc1ccc(CO/N=C2/c3ccccc3OCC2n2cncn2)cc1	ATCC 10231	64 µg/mL
CC1(C)O[C@H]2O[C@H](C3=NOC(CBr)C3)[C@H](OCc3ccccc3)[C@H]2O1		>50 µg/mL
Cc1cc(=O)c(O)cn1CC1=NCCS1		50 µg/mL
O=C(CSc1nnc(-c2ccncc2)n1Cc1ccccc1)c1ccccc1	ATCC 10231	50 µg/mL
O/N=C\c1ccccc1		4130 µM
Clc1ccc(/C(Cn2ccnc2)=N/Nc2c(Cl)cccc2Cl)s1	B	6.2 µg/mL
O/N=C\c1ccccc1Cl		710 µM
CCOc1cc2c(cc1F)n([O-])c(C)c(Cl)[n+]2=O	Clinical isolate 9	62.5 µg/mL
C/C(=N/O)C(Cl)(Cl)Cl		3220 µM
Clc1ccc(CO/N=C2/c3ccc(Cl)cc3OCC2n2cnnc2)c(Cl)c1	ATCC 10231	64 µg/mL
O=C(Cc1ccccc1)Nc1ccc2oc(-c3ccccc3)nc2c1	ATCC 10145	50 µg/mL
CSC1=C(Nc2ccc(Br)cc2C)C(=O)c2cccnc2C1=O	ATCC 10231	1.6 µg/mL
Cc1ccc(C(=O)c2cc(C)ccc2OCc2nnc3n2N=C(c2ccccc2)CS3)cc1		11.5 µM
CCCCCCCCC/C=C/C(O)CC(O)CC(=O)OC1CC(OC(CC)C(C)C(O)C(C)C(O)C(C)C2OC(=O)/C=C/C(C)C(O)CC(O)CCCC(O)CCC(C)C(OC3OC(CO)C(O)C(O)C3O)C(=O)C3(O)OC(CC(O)CC(O)CC(O)CCCC(O)C4OC4C2C)CC(O)C3O)OC(C)C1OC	IFO 1594	1.9 µg/mL
O=C(CSc1nnc(-c2ccncc2)n1-c1ccccc1)c1ccccc1	ATCC 10231	25 µg/mL
CCOC(=O)C1CC([C@H]2O[C@@H]3OC(C)(C)O[C@@H]3[C@H]3OC(C)(C)O[C@H]32)=NO1		>50 µg/mL
Cc1ccc(OCc2nnc3n2N=C(c2ccccc2)CS3)c(C(=O)c2cccc(Cl)c2)c1		3 µM
Clc1ccc(CO/N=C2/c3ccccc3OCC2n2cncn2)c(Cl)c1	ATCC 10231	16 µg/mL
O/N=C/c1ccc(O)cc1		>7290 µM
C[C@H]1[C@H](O)[C@@H](C)/C=C/C=C/C=C/C=C/C=C/C=C/C=C/[C@H](O[C@@H]2O[C@H](C)[C@@H](O)[C@H](N)[C@@H]2O)C[C@@H]2O[C@](O)(C[C@@H](O)C[C@@H](O)CC[C@H](O)[C@@H](O)C[C@@H](O)CC(=O)O[C@H]1C)C[C@H](O)[C@H]2C(=O)O	2402E	0.03 µg/mL
O=C1OC(c2ccc(Oc3ccccc3)cc2)=C/C1=C\c1ccc2c(c1)OCO2		>100 µg/mL
Cc1c(Sc2ccccc2)[n+](=O)c2cc(Cl)ccc2n1[O-]	Clinical isolate 8	31.25 µg/mL
O=C(Nc1cccc(Cl)c1)c1ccccc1O	ATCC 44859	31.25 µM
O=C1OC(c2ccc(Oc3ccccc3)cc2)=C/C1=C\c1ccccc1		>100 µg/mL
O=c1ccc2nccc3c4ccccc4n1c23		56.1 µM
Fc1ccccc1CO/N=C1/c2ccccc2OCC1n1cncn1	ATCC 10231	>64 µg/mL
Nn1c(COc2cc(Br)ccc2C(=O)c2ccccc2)n[nH]c1=S		4 µM
CN1CCN(CC(=O)Nc2ccc3oc(-c4ccc(F)cc4)nc3c2)CC1	ATCC 10145	25 µg/mL
O=C(c1ccccc1)c1ccc(Br)cc1OCc1nnc2n1N=C(c1ccccc1)CS2		5.5 µM
Cc1ccc(NC(=O)c2ccccc2O)cc1	ATCC 44859	62.5 µM
O=C1OC(c2ccc(Oc3ccccc3)cc2)=C/C1=C\c1ccc(Cl)cc1Cl		50 µg/mL
CCc1c(O)c(=O)ccn1CCC1=NCCS1		100 µg/mL
COc1ccc(CC2CC([C@H]3O[C@@H]4OC(C)(C)O[C@@H]4[C@H]3OCc3ccccc3)=NO2)cc1		>50 µg/mL
CN(CCCC#CC(C)(C)C)c1cccc2c1CCC(=O)N2	Clinical isolate 4	15.6 µg/mL
O=C1NC(c2ccc(Oc3ccccc3)cc2)=C/C1=C\c1cccs1		10 µg/mL
OC(Cn1cncn1)(Cn1cncn1)c1ccc(F)cc1F	ATCC 10231	25 µg/mL
Cc1c(S(=O)(=O)c2ccccc2)[n+](=O)c2cc(Cl)ccc2n1[O-]	Clinical isolate 15	62.5 µg/mL
O=C(Nc1ccc(Br)cc1)c1ncccc1S	ATCC 44859	>125 µM
CCc1ccc(-c2nc3cc(NC(=O)Cc4ccccc4)ccc3o2)cc1	ATCC 10145	50 µg/mL
CSC1=C(Nc2cccc(C(C)=O)c2)C(=O)c2cccnc2C1=O	ATCC 10231	25 µg/mL
COc1ccc(C(=O)c2cc(C)ccc2OCc2n[nH]c(=S)n2N)cc1		7 µM
O=c1ccn(CC2=NCCS2)cc1O		50 µg/mL
O=C(Nc1ccccc1)c1ncccc1O	ATCC 44859	125 µM
O=C1NC(c2ccc(Oc3ccccc3)cc2)=C/C1=C\c1ccc(Cl)cc1		10 µg/mL
Cc1c(Sc2ccccc2)[n+](=O)c2cc(C(F)(F)F)ccc2n1[O-]	Clinical isolate 14	15.6 µg/mL
O/N=C\c1cccs1		5900 µM
CCCCCOc1ccc(-c2cc(-c3ccc(C(=O)N[C@H]4C[C@@H](O)[C@@H](O)NC(=O)[C@@H]5[C@@H](O)[C@@H](C)CN5C(=O)[C@H]([C@H](O)CC(N)=O)NC(=O)[C@H]([C@H](O)[C@@H](O)c5ccc(O)c(OS(=O)(=O)O)c5)NC(=O)[C@@H]5C[C@@H](O)CN5C(=O)[C@H]([C@@H](C)O)NC4=O)cc3)no2)cc1	FP1839 fluconazole-resistant	0.0156 µg/mL
O=c1ccn(CC2=NCCS2)cc1OCc1ccccc1		75 µg/mL
CSC1=C(Nc2cccc(C#N)c2)C(=O)c2cccnc2C1=O	ATCC 10231	50 µg/mL